In patent publication US20240262869A1:
Read-outs that look alike come from different tables or passages of the source.

Assays:
ACE2-hFc (human) [1] = target: ACE2-hFc (human) (UniProt Q9BYF1)
ACE2-hFc (human) [2] = target: ACE2-hFc (human) (UniProt Q9BYF1); remark: listed apart in the source
ACE2-hFc (human) [3] = target: ACE2-hFc (human) (UniProt Q9BYF1); experiment: SPR, ACE2-hFc captured on Protein G
ACE2-hFc (human) [4] = target: ACE2-hFc (human) (UniProt Q9BYF1); remark: listed apart in the source

Substance: mInCV02R (SARS CoV-2 RBD N-1) having EIS at the N-terminal (from UniProt P0DTC2 332-532) (ligand; other documents disagree on this pair)
- Kd (ACE2-hFc (human) [1]): 3.9 nM
- Kd (ACE2-hFc (human) [2]): 1.8 nM
- Kd (ACE2-hFc (human) [3]): 15 nM
- Kd (ACE2-hFc (human) [4]): 2.5 nM
